A mixed list of measured activities; the numbers were collected in NIAID ChemDB.

Common to all: whole-cell or culture tests; agent: Candida albicans; measure: MIC

Neighbouring rows are from separate reports.

structure	strain	result
CCCCCCCCCCCCCCCC[n+]1c(C(C)O)c[nH]c1C	-	32 µg/mL
O=c1c2cccc(O)c2oc2cccc(O)c12	-	>25 µg/mL
Cc1ccc2oc(-c3ccc(Cl)cc3Cl)nc2c1	-	25 µg/mL
Clc1ccc(CO/N=C2/c3ccccc3OCC2n2ccnc2)cc1	-	4 µg/mL
COc1ccccc1-c1nc2ccc(C)cc2o1	-	25 µg/mL
Cc1c(Sc2ccccc2)[n+](=O)c2cc(C(F)(F)F)ccc2n1[O-]	Clinical isolate 2	31.25 µg/mL
Brc1ccc(CO/N=C2\c3ccccc3OCC2n2ccnc2)cc1	-	4 µg/mL
Cc1ccc(O)c(C(=O)/C=C/c2ccc(O)cc2O)c1	SDAU1	75 µg/mL
CCOc1cc2c(cc1F)n([O-])c(C)c(Cl)[n+]2=O	Clinical isolate 3	62.5 µg/mL
O=C(Nc1ccc(Br)cc1)c1ccccc1O	ATCC 44859	62.5 µM
CCCCCCCCCCC[C@@H]1CC(=O)NCC(=O)N[C@@H](CCCCN)C(=O)N[C@@H](CC(C)(C)C)C(=O)N1	ATCC 24433	4 µg/mL
O=C1/C(=C/c2ccc3c(c2)OCO3)CSc2ccc(Cl)cc21	-	25 µg/mL
O=C(Nc1ccc2c(c1)Sc1ccccc1O2)c1ccncc1	C316	12 µg/mL
Cc1c(/C(=N/OC(=O)c2ccccc2)c2ccccc2)oc2ccccc12	-	256 µg/mL
O=C(Nc1ccc(Br)cc1)c1ncccc1O	ATCC 44859	>250 µM
Cc1c(/C(=N/OCc2ccc(Cl)cc2)c2ccccc2)oc2ccccc12	-	256 µg/mL
CCc1c(OCc2ccccc2)c(=O)ccn1CCC1=NCCS1	-	100 µg/mL
O=C1/C(=C/c2ccc(O)cc2)CCc2ccccc21	-	100 µg/mL
CCc1c(OCc2ccccc2)c(=O)ccn1CC1=NCCS1	-	75 µg/mL
O=C1/C(=C/c2ccccc2)CSc2ccc(Cl)cc21	-	50 µg/mL
Cc1cc(-c2ccccc2)cc(C)[n+]1-c1ccc(S(=O)(=O)Nc2ccc3c(c2)Sc2ccccc2O3)cc1	C316	8 µg/mL
COC1CC2CCC(C)C(O)(O2)C(=O)C(=O)N2CCCCC2C(=O)OC(C(C)CC2CCC(O)C(C)C2)CC(=O)C(C)/C=C(\C)C(O)C(O)C(=O)C(C)CC(C)/C=C/C=C/C=C/1C	ATCC11651	0.3125 µg/mL
Cc1cc(C)c(S(=O)(=O)Nc2ccc3c(c2)Sc2ccccc2O3)c(C)c1	C316	5 µg/mL
CCOc1cc2c(cc1F)n([O-])c(C)c(S(=O)(=O)c1ccccc1)[n+]2=O	Clinical isolate 9	15.6 µg/mL
Clc1ccc2c(c1)OCC(n1ccnc1)/C2=N\OCc1ccc(Cl)c(Cl)c1	-	8 µg/mL
Cc1ccc(/C(=N\OC(=O)c2ccccc2)c2oc3ccccc3c2C)cc1	-	64 µg/mL
CCCCCCCCCCC[C@@H]1CC(=O)NCC(=O)N[C@@H](CCCCN)C(=O)N[C@@H]([C@@H](C)CC)C(=O)N1	ATCC 24433	16 µg/mL
Clc1ccc(CO/N=C2/c3ccc(Cl)cc3OCC2n2ccnc2)c(Cl)c1	-	8 µg/mL
O=C1/C(=C/c2ccc(Cl)cc2)CSc2ccccc21	-	50 µg/mL
CCCCCCCCC[C@@H]1CC(=O)NCC(=O)N[C@@H](Cc2cnc[nH]2)C(=O)N[C@@H](C(C)C)C(=O)N1	ATCC 24433	>32 µg/mL
O=c1c2ccc(O)cc2oc2cccc(O)c12	-	>25 µg/mL
O=C(Nc1ccc2c(c1)Sc1ccccc1O2)N(c1ccccc1)c1ccccc1	C316	0.4 µg/mL
COc1ccc(/C=C2\COc3ccc(OC)cc3C2=O)cc1	-	25 µg/mL
CCCCCCCCCCCCCCn1cc[n+](C)c1	-	8 µg/mL
O=C1/C(=C/c2ccc(O)cc2)COc2ccccc21	-	12.5 µg/mL
Cc1c(Cl)[n+](=O)c2cc(Cl)ccc2n1[O-]	Clinical isolate 23	15.6 µg/mL
CCCCCCCCC[C@@H]1CC(=O)NCC(=O)N[C@@H](CCC(=O)O)C(=O)N[C@@H](C(C)C)C(=O)N1	ATCC 24433	>64 µg/mL
COc1ccc(NC(=O)c2ncccc2O)cc1	ATCC 44859	250 µM
CCCCCCCCC[C@@H]1CC(=O)NCC(=O)N[C@@H](CCCCN(C)C)C(=O)N[C@@H](C(C)C)C(=O)N1	ATCC 24433	8 µg/mL
Clc1ccc(CO/N=C2\c3ccccc3OCC2n2ccnc2)cc1	-	8 µg/mL
CCCCCCCCCCC[C@@H]1CC(=O)NCC(=O)N[C@@H](CCCCN)C(=O)N[C@@H](C(C(C)C)C(C)(C)C)C(=O)N1	ATCC 24433	16 µg/mL
CC1C(=O)CC2C(C)(C)CCC[C@]2(C)C1(O)CCc1ccco1	ATCC 10231	12.5 µg/mL
Cc1c(Sc2ccccc2)[n+](=O)c2cc(Cl)ccc2n1[O-]	Clinical isolate 13	15.6 µg/mL
CO[C@H]1C[C@@H]2CC[C@@H](C)[C@@](O)(O2)C(=O)C(=O)N2CCCC[C@H]2C(=O)O[C@H]([C@H](C)C[C@@H]2CC[C@@H](O)[C@H](OC)C2)CC(=O)[C@H](C)/C=C(\C)[C@@H](O)[C@@H](OC)C(=O)[C@H](C)C[C@H](C)/C=C/C=C/C=C/1C	ATCC11651	0.1 µg/mL
Cc1ccc2oc(-c3ccccc3[N+](=O)[O-])nc2c1	-	25 µg/mL
CC(=O)O/N=C(\c1ccc(Cl)cc1)c1oc2ccccc2c1C	-	16 µg/mL
Cc1ccc(S(=O)(=O)Nc2ccc3c(c2)Sc2ccccc2O3)cc1	C316	9 µg/mL
Cc1c(/C(=N/OCc2ccccc2)c2ccccc2)oc2ccccc12	-	>512 µg/mL
Clc1ccc(CO/N=C2/c3ccc(Cl)cc3OCC2n2ccnc2)cc1	-	4 µg/mL
O=C(/C=C/c1ccc(O)cc1O)c1ccccc1O	ATCC 18804	50 µg/mL
Cc1c(O)c(=O)ccn1CC1=NCCS1	-	75 µg/mL
COc1ccc(/C=C2\COc3ccccc3C2=O)cc1OC	-	50 µg/mL
Cc1ccc(S(=O)(=O)NC(=O)Nc2ccc(S(=O)(=O)Nc3ccc4c(c3)Sc3ccccc3O4)cc2)cc1	C316	0.8 µg/mL
CCCCCCCCC[C@@H]1CC(=O)NCC(=O)N[C@@H](CCCCN)C(=O)N[C@@H](CCCCN)C(=O)N1	ATCC 24433	64 µg/mL
COc1cc(O)c2c(=O)cc(-c3ccc(OC)c(OC)c3)oc2c1	ATCC 10231	6.25 µg/mL
Clc1ccc(CO/N=C2\c3ccccc3OCC2n2ccnc2)c(Cl)c1	-	1 µg/mL
Cc1ccc2nc(-c3ccccc3Cl)oc2c1	-	25 µg/mL
COc1cc(O)c2c(=O)c(OC)c(-c3ccc(OC)c(OC)c3)oc2c1	ATCC 10231	12.5 µg/mL
CC(C)=CCc1c(O)cc(O)c2oc3cccc(O)c3c(=O)c12	-	>25 µg/mL
N=C(N)c1ccc2nc(-c3ccc(-c4nc5ccc(C(=N)N)cc5[nH]4)[nH]3)[nH]c2c1	Isolate 2370 fluconazole-resistant	0.39 µg/mL
CCCCCCCCn1cc[n+](C)c1	-	500 µg/mL
CCCCCCCCCCC[C@@H]1CC(=O)NCC(=O)N[C@@H](CCCCN)C(=O)N[C@@H](C(C)C)C(=O)N1	ATCC 24433	128 µg/mL
O=C(Nc1cccc(Cl)c1)c1ccccc1O	ATCC 44859	>62.5 µM
COc1cc(O)c2c(=O)c3ccc(O)c(OC)c3oc2c1	-	>25 µg/mL
COc1ccc(/C=C2\COc3ccc(-c4ccccc4)cc3C2=O)cc1	-	25 µg/mL
O=S(=O)(Nc1ccc2c(c1)Sc1ccccc1O2)c1cccc(-[n+]2c(-c3ccccc3)cc(-c3ccccc3)cc2-c2ccccc2)c1	C316	3 µg/mL
CCc1c(O)c(=O)ccn1CC1=NCCS1	-	100 µg/mL
CCCCCCCCCCC[C@@H]1CC(=O)NCC(=O)N[C@@H](CCCCN)C(=O)N[C@@H](CC(C)C)C(=O)N1	ATCC 24433	8 µg/mL
COc1ccc(/C=C2\COc3ccc(SC)cc3C2=O)cc1	-	25 µg/mL

A second listing of 8 rows from above:

structure,strain,result
COc1ccc(/C=C2\COc3ccc(OC)cc3C2=O)cc1,-,25 µg/mL
CCCCCCCCCCC[C@@H]1CC(=O)NCC(=O)N[C@@H](CCCCN)C(=O)N[C@@H]([C@@H](C)CC)C(=O)N1,ATCC 24433,16 µg/mL
Clc1ccc(CO/N=C2\c3ccccc3OCC2n2ccnc2)cc1,-,8 µg/mL
COc1cc(O)c2c(=O)c(OC)c(-c3ccc(OC)c(OC)c3)oc2c1,ATCC 10231,12.5 µg/mL
Clc1ccc2c(c1)OCC(n1ccnc1)/C2=N\OCc1ccc(Cl)c(Cl)c1,-,8 µg/mL
Cc1cc(C)c(S(=O)(=O)Nc2ccc3c(c2)Sc2ccccc2O3)c(C)c1,C316,5 µg/mL
CCCCCCCCCCC[C@@H]1CC(=O)NCC(=O)N[C@@H](CCCCN)C(=O)N[C@@H](CC(C)C)C(=O)N1,ATCC 24433,8 µg/mL
O=C(Nc1cccc(Cl)c1)c1ccccc1O,ATCC 44859,>62.5 µM

Blank or dashed fields: not listed here.